Anti-infective test results gathered from many reports (values: NIAID ChemDB through PubChem).

All rows: tests in culture

An empty or dashed field is not shown. Inhibition is in % at the dose shown (toxicity tests: loss of growth or viability). Rows are shuffled and stem from different studies. ECn: concentration that inhibits the pathogen or its effect by n%.

| structure | cell line | tested at | species | strain or isolate | endpoint | read by | value |
|---|---|---|---|---|---|---|---|
| Nc1nc2c(ncn2COC(CO)CO)c(=O)[nH]1 | MRC-5 |  | Human cytomegalovirus | Towne (ganciclovir- foscarnet-susceptible) | EC75 | plaque count | 9.94 µM |
| Cn1cc(C(=O)NCc2ccc(Cl)cc2)c(=O)c2cc(CN3CCOCC3)ccc21 | HFF | 5.7 µM | Human cytomegalovirus | A | inhibition | plaque count | 90% |
| Nc1nc2c(ncn2[C@@H]2C[C@H](CO)[C@H]2CO)c(=O)[nH]1.O=C(O)P(=O)(O)O | MRC-5 |  | Human cytomegalovirus | PC92 (ganciclovir- foscarnet-susceptible) | EC75 | plaque count | 1.2 µM |
| Nc1ccn(C[C@@H](CO)OCP(=O)(O)O)c(=O)n1 | MOLT-3 |  | Human herpesvirus 6 | TYPE 6A | EC50 |  | 2.9 µg/mL |
| OC[C@H]1O[C@@H](n2c(Cl)nc3cc(Cl)c(Cl)cc32)[C@H](O)[C@@H]1O |  |  | Human cytomegalovirus | Recombinant C4 (D341E) | EC95 | virus yield | 39 µM |
| Nc1nc2c(ncn2CCC(CO)CO)c(=O)[nH]1 | HUMAN CORD BLOOD CELLS | 100 µM | Human herpesvirus 7 | SB | inhibition | antigen | 31% |
| CC(C)Nc1nc2cc(Cl)c(Cl)cc2n1[C@H]1O[C@@H](CO)[C@H](O)[C@@H]1O | MRC-5 |  | Human cytomegalovirus | AD169 | EC50 | hybridisation | 0.12 µM |
| Cc1oc(NC(=O)C(F)(F)F)c(S(=O)(=O)c2ccc(Cl)cc2)c1C | HSB-2 |  | Human herpesvirus 6 | GS (TYPE 6A) | EC50 | cytopathic effect | >20 µg/mL |
| Nc1nc2c(ncn2COC(CO)CO)c(=O)[nH]1 | MRC-5 |  | Human cytomegalovirus | C8501 | EC50 | hybridisation | 1 µM |
| N#CC1C(c2ccc(Cl)cc2)Nc2ccccc2S1(=O)=O | SupT1 |  | Human herpesvirus 7 |  | EC50 | flow cytometry | 5.7 µg/mL |
| Nc1ccn(C[C@@H](CO)OCP(=O)(O)O)c(=O)n1 | MRC-5 |  | Human cytomegalovirus | Towne (ganciclovir- foscarnet-susceptible) | EC75 | plaque count | 0.97 µM |
| Cc1c(S(=O)(=O)c2ccc(Cl)cc2)c(NC(=O)C(F)(F)F)n(Cc2ccc(Cl)cc2)c1C | MOLT-3 |  | Human herpesvirus 6 | Z29 (TYPE 6B) | EC50 | cytopathic effect | >20 µg/mL |
| Nc1ncnc2c1ncn2C=C1CC1CO |  |  | Human cytomegalovirus | VR5406 (ganciclovir-resistant) | EC90 | plaque count | 4.3 µM |
| Nc1ccn(C[C@H]2COP(=O)(O)CO2)c(=O)n1 | MRC-5 |  | Human cytomegalovirus | Towne (ganciclovir- foscarnet-susceptible) | EC75 | plaque count | 1.09 µM |

Repeating the final 2 entries:

structure | cell line | tested at | species | strain or isolate | endpoint | read by | value
Nc1ncnc2c1ncn2C=C1CC1CO |  |  | Human cytomegalovirus | VR5406 (ganciclovir-resistant) | EC90 | plaque count | 4.3 µM
Nc1ccn(C[C@H]2COP(=O)(O)CO2)c(=O)n1 | MRC-5 |  | Human cytomegalovirus | Towne (ganciclovir- foscarnet-susceptible) | EC75 | plaque count | 1.09 µM